{"sequences": {"note": "By UniProt entry, the sequences of proteins in these tests, tags left out. Where a name states a change or a piece, a line headed by the entry shows the natural chain unless it says otherwise.", "UniProt Q99289": "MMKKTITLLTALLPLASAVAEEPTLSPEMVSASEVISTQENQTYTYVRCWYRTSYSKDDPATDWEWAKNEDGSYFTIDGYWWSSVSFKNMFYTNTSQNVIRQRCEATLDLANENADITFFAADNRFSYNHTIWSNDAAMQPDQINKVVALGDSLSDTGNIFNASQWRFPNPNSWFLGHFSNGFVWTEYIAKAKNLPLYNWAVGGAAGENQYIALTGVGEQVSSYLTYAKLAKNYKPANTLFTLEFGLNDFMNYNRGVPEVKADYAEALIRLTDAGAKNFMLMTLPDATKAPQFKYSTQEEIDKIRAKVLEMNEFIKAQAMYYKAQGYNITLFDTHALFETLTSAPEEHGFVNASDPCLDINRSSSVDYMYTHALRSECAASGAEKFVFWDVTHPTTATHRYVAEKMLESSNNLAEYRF"}, "source": "paper PMC7796666", "about": "“Biochemical characterization and inhibition of thermolabile hemolysin from Vibrio parahaemolyticus by phenolic compounds” (2021)", "data": [{"target": "VpTLH (Vibrio parahaemolyticus, UniProt Q99289)", "assay": "p-nitrophenyl laurate hydrolysis, […] nm", "details": "200 µM PNPL, 0.0001% egg yolk lecithin, 50 mM Tris-HCl pH 7.5, 37 °C, 6.2 µM enzyme", "units": {"% inhibition at 30 μM": "%"}, "values": [{"smiles": "O=C(O)c1cc(O)c(O)c(O)c1", "% inhibition at 30 μM": 20}, {"smiles": "O=C(O)c1ccc(O)c(O)c1", "% inhibition at 30 μM": 20}, {"smiles": "COc1cc(C(=O)O)ccc1O", "% inhibition at 30 μM": 20}]}]}
